Publication PMC12691643

What was measured:
Test in all cases: affinity purification with mass spectrometry; HA-tagged TgWIP variants pulled down by the HA tag from lysates of DC2.4 cells infected 4 h at MOI 7; host partners by mass spectrometry; values are negative fold changes in peptide counts of the mutant immunoprecipitations relative to TgWIP^WT
[1] = target: TgWIP^(PRR3 mut), HA-tagged (Toxoplasma gondii)
[2] = target: TgWIP^Y150A/Y199A, HA-tagged (Toxoplasma gondii)
[3] = target: TgWIP^(PRR2 mut), HA-tagged (Toxoplasma gondii)
[4] = target: TgWIP^(WIRS mut), HA-tagged (Toxoplasma gondii)

“Nck1, endogenous in murine DC2.4 cells (from UniProt Q99M51 1-377) (natural protein)” gave a negative fold change in peptide counts relative to TgWIP^WT [1] of 60 fold, a negative fold change in peptide counts relative to TgWIP^WT [2] of 1 fold and a negative fold change in peptide counts relative to TgWIP^WT [3] of 1 fold. For the same substance, the negative fold change in peptide counts relative to TgWIP^WT [4] was 1 fold.
